The results in this text go back to US8674085B2, “2′-branched nucleosides and Flaviviridae mutation” (priority 2002, dated 2014).

Some results are limits rather than exact numbers.

The subject of assay [1] is BVDV strain I-N-dIns (wild type). Type of assay: cell-based, bovine viral diarrhea virus. The method, then: To conduct the virus focus assay, MDBK cells were seeded onto 6-well plates containing 2×10^5 cells per well and grown at 37° C./5% CO2 for at least 5 hours before use. The test samples (culture supernatants combined with cell monolayers) were frozen/thawed twice, serially diluted by 10-fold in medium, and used to inoculate test cells in 6-well plates at 0.2 mL per well. The inoculum was removed after 1 hour of adsorption, and the cells were overlaid with 3 mL of 0.5% agarose in complete growth medium (1× DMEM (Cellgro), supplemented with 8% horse serum, penicillin, streptomycin, L-glutamine, sodium pyruvate, and 25 mM HEPES). After 3 days of incubation at 37° C./5% CO2, the plates were fixed for 1 hour with 3 mL of 7.4% formaldehyde in PBS, and washed with PBS. The cell monolayers were permeabilized with 1 mL of PBS-0.25% Triton X-100 per well for 10 minutes, and incubated with 0.5 mL of goat anti-BVDV antiserum (VMDR, Inc.; diluted 1:1000 in PBS-0.25% Triton X-100) for 1 hour. The antiserum was then removed, and cell monolayers were washed with PBS (twice for 15 min) and incubated with 0.5 mL of peroxidase-conjugated donkey anti-goat antibody (diluted 1:1000 in PBS-0.25% Triton X-100) for another 1 hour. After the antibody was removed, the cell monolayers were washed with PBS (twice for 15 min), and incubated with 0.5 mL of diaminobenzidine (DAB) peroxidase substrate solution (Vector Laboratories) at room temperature until virus foci become visible (approximately 15 minutes). All incubations were carried out with rocking. The staining was stopped by washing with water and the plates were allowed to air dry. Virus titers were calculated in FFU/mL, using the following equation: TFFU/mL=N×5×D; where T is a virus titer in FFU/mL; N is a number of foci per well; and D is a dilution factor for the corresponding virus sample. […]
To conduct the virus yield reduction assay, MDBK cells were seeded onto 24-well plates (1×10^5 cells per well) and grown at 37° C./5% CO2 overnight. […] The virus titer in the cell culture was quantified by focus assay as described above. […]

The test system of assay [2] is BVDV (strain I-N-dIns) in persistently infected MDBK cells. Kind of assay: Single or double treatment of persistently infected MDBK cells, virus titers by focus assay. Type of assay: cell-based, bovine viral diarrhea virus. The note with it: for log value of the BVDV titer: 0 μM β-D-2′-CH3-riboC, 7 days (two passages). The method, then: Persistent BVDV infection was established in MDBK cell line (ATCC, Manassas, Va., Catalog #: CCL-22) by in vitro infection of naive cells with a noncytophatic (ncp) BVDV (strain I-N-dIns; Dr. R. Donis, U. of Nebraska, Lincoln, Nebr.). The multiplicity of infection (MOI) was 0.01. Cells were passaged twice per week (splitting ratio 1:15) until the stable high-level of infection (10^6-10^7 focus forming units (FFU) per mL) was achieved, as was determined by a focus assay. Next, the persistently infected cells were grown in 6-well culture plates with 8 μM or without β-D-2′-CH3-riboC (Idenix Pharmaceuticals). Cell cultures were passaged every three to four days by splitting with a ratio of 1:15 to 1:20. […] The virus titers in cell cultures were monitored at the end of each passage by the virus focus assay.
To conduct the virus focus assay, MDBK cells were seeded onto 6-well plates containing 2×10^5 cells per well and grown at 37° C./5% CO2 for at least 5 hours before use. The test samples (culture supernatants combined with cell monolayers) were frozen/thawed twice, serially diluted by 10-fold in medium, and used to inoculate test cells in 6-well plates at 0.2 mL per well. The inoculum was removed after 1 hour of adsorption, and the cells were overlaid with 3 mL of 0.5% agarose in complete growth medium (1× DMEM (Cellgro), supplemented with 8% horse serum, penicillin, streptomycin, L-glutamine, sodium pyruvate, and 25 mM HEPES). After 3 days of incubation at 37° C./5% CO2, the plates were fixed for 1 hour with 3 mL of 7.4% formaldehyde in PBS, and washed with PBS. The cell monolayers were permeabilized with 1 mL of PBS-0.25% Triton X-100 per well for 10 minutes, and incubated with 0.5 mL of goat anti-BVDV antiserum (VMDR, Inc.; diluted 1:1000 in PBS-0.25% Triton X-100) for 1 hour. The antiserum was then removed, and cell monolayers were washed with PBS (twice for 15 min) and incubated with 0.5 mL of peroxidase-conjugated donkey anti-goat antibody (diluted 1:1000 in PBS-0.25% Triton X-100) for another 1 hour. After the antibody was removed, the cell monolayers were washed with PBS (twice for 15 min), and incubated with 0.5 mL of diaminobenzidine (DAB) peroxidase substrate solution (Vector Laboratories) at room temperature until virus foci become visible (approximately 15 minutes). All incubations were carried out with rocking. The staining was stopped by washing with water and the plates were allowed to air dry. Virus titers were calculated in FFU/mL, using the following equation: TFFU/mL=N×5×D; where T is a virus titer in FFU/mL; N is a number of foci per well; and D is a dilution factor for the corresponding virus sample.
The effect of Intron A, alone or in combination with β-D-2′-CH3-riboC, on the wild type BVDV was further studied in the persistently infected MDBK cells. In one experimental setting, the virus titers were determined after 7 days (two passages) of single or double treatment with several inhibitor concentrations.

For orientation: EC90 means the concentration at which the effect reaches the 90% level. Read a low EC90 as an effect from little substance. On to “Interferon alpha-2b: Intron-A (interferon alpha-2b) by Schering [reference compound]”, for which the EC90 in assay [1] was determined as 119 ± 34.1 µM. Besides, the EC4 log in assay [1] (BVDV strain I-N-dIns, ncp, concentration reducing viral titer by 99.99%, 48 hours) was >800 μM. Moreover, the “reduction in virus yield” value in assay [1] (wild type virus, highest drug concentration tested) was ~1.5 log. For the same substance, the “log value of the BVDV titer” value in assay [2] (5 IU/mL Interferon alpha-2b) is recorded as 6.81 log; in assay [2] (50 IU/mL Interferon alpha-2b), 6.95 log; in assay [2] (200 IU/mL Interferon alpha-2b), 6.73 log; in assay [2] (1000 IU/mL Interferon alpha-2b) it was 6.41 log; in assay [2] (2000 IU/mL Interferon alpha-2b), 6.51 log. Moreover, in assay [2] (single treatment, 2000 IU/mL interferon alpha-2b, 7 days), the “reduction of viral titers” value came out at 0.1 log.
